pKi: −log10 of the molar value.

Protein sequences, listed by entry. Tags and fused reporters are not part of them. Residues count along the entry.
UniProt P06276, 29-602 limits assumed: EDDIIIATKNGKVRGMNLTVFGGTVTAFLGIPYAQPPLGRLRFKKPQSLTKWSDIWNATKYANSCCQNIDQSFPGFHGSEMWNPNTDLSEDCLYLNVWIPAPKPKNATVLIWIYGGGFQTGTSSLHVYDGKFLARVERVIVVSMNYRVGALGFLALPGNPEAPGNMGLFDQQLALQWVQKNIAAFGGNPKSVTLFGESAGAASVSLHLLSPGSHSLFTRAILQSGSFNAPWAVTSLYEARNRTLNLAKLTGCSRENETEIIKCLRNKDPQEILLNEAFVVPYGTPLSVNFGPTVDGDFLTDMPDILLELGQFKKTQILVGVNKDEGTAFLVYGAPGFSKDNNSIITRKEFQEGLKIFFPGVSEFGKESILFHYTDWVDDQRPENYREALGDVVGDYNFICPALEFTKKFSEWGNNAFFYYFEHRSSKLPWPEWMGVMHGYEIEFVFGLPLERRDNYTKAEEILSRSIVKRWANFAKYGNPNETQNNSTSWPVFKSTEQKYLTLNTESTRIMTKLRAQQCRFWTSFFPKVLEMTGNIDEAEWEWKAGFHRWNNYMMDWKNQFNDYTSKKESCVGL

The assay concerns the target BCHE (Homo sapiens (Human), UniProt P06276). Description: biochemical. The protocol:
The compounds referred to herein have BCHE inhibitory activity. To determine the inhibitory values, enzymes were incubated for 2 hours in the presence of varying concentrations of compound prior to activity measurements. Activity is then measured colorimetrically upon addition of substrate and Ellman's reagent.
For `CCCCOP(=O)(OCCCC)SCC(=O)NCCCCCCNC(=O)CSP(=O)(OCCCC)OCCCC` [Compound 80, S′,S′-(hexane-1,6-diylbis(azenediyl)) Bis(2-oxoethane-2,1-diyl) O,O,O′,O′-Tetrabutyl Diphosphorodithioate], the pKi is 7.17.

As to `CCCCOP(=O)(OCCCC)SCC(=O)NCCCCCCCCNC(=O)CSP(=O)(OCCCC)OCCCC` [Compound 82, S′,S′-(octane-1,8-diylbis(azenediyl)) Bis(2-oxoethane-2,1-diyl) O,O,O′,O′-Tetrabutyl Diphosphorodithioate], the pKi is 6.85.

`CCCCOP(=O)(OCCCC)SCC(=O)NCCCCCCCNC(=O)CSP(=O)(OCCCC)OCCCC` [Compound 81, S′,S′-(heptane-1,7-diylbis(azenediyl)) bis(2-oxoethane-2,1-diyl) O,O,O′,O′-Tetrabutyl Diphosphorodithioate] showed a pKi of 7.00.

A word on the pKi: it is −log10 of the Ki, conventionally taken in molar units. Low values mean a large Ki, high ones a small Ki.

(Values after patent publication US20260015372A1, “Organophosphorous Compounds and Uses Thereof” (priority 2022, published 2026).)
